For 2 substances, binding efficiency (% of wild-type VP22-GFP) results are on record in PMC3466811 (Virology, 2010).

The assay deals with cytoplasmic tail of glycoprotein E fused to the C-terminus of GST (GST-gECT) (HSV-1). Briefly: pull-down.

As to “VP22 F196W fused to the N-terminus of GFP (from UniProt P10233 1-301) (natural protein)”, the binding efficiency (% of wild-type VP22-GFP) is 140%. For “VP22 W221F fused to the N-terminus of GFP (from UniProt P10233 1-301) (natural protein)”, the binding efficiency (% of wild-type VP22-GFP) was 54%.
